Test results taken from article PMC4382515.

Tested on: N[C@@H](CCC(=O)O)C(=O)O
Assay: purified protein
Conditions: pH 4.6; 25.0 °C

## BmGadB (Brucella microti CCM 4915)
  Km: 2.68 ± 0.17 mM
  kcat/Km: 6660 M⁻¹ s⁻¹
